Experimental data as given in article PMC9734910 (2022).

How the values were obtained:
[1] = target: NeoCoV RBD–hFc (domain B fused to human IgG Fc domain) (NeoCoV (bat coronavirus, found in …))
[2] = target: PDF-2180 RBD–hFc (domain B fused to human IgG Fc domain) (PDF-2180 (bat coronavirus, infects …))

B1: soluble Bat37ACE2 ectodomain (Pipistrellus pipistrellus ACE2) (domain or fragment)
chain: TTEEEARDFLDKFNSEAENLSHESALASWDYNTNITDENAQKMNEADSKWSDFYKEQSKRAQAFPLQEIQNLTIKLQLQILQQNGSSVLTAEKSKRLSTILTTMSTIYSTGKVCNPNNPQQCFTLSGLEDIMEKSKDYHQRLWVWEGWRSEVGKQLRPLYEEYVVLKNEMARGNNYEDYGDYWRGDYETEGEDGYNYSRNQLMEDVDRIFLEIKPLYEQLHAYVRAKLMNAYPSRISPTGCLPAHLLGDMWGRFWTNLYNLTVPFEQKQNIDVTETMKKQSWDAEKIFKEAEKFYLSVGLYSMTQGFWNNSMLTEPSDGRQVVCHPTAWDLGEDDFRIKMCTKVTMDDFLTAHHEMGHIQYDMAYAKQPYLLRNGANEGFHEAVGEVMSLSVATPKHLKGMGLLPSDFSEDNETEINFLLKQALNIVGTLPFTYMLEKWRWMVFEGKIPKEQWMEKWWEMKREIVGVVEPLPHDETYCDPASLFHVANDYSFIRYFTRTILEFQFQEALCKIAKHEGPLHKCDISNSTEAGKKLKDMLELGKSKPWTYALNQIARTKEMDAKPLLNYFEPLFSWLKKQNGNSVGWSADWSPYSEQSLKVRISLISALGEKAYEWNDNEMYLFRSSVAYAMRVYFSKMNKTIPFTAEDVRVSDEKKRVSFKFFVTSPTNISDIIPRSEVEDAIRMSRSRINDA
koff [1]: 8.72e-05 s⁻¹ | koff [2]: 0.000141 s⁻¹
